Results reported in US6362166B1, “Antipicornaviral compounds and methods for their use and preparation” (Agouron Pharmaceuticals, Inc., priority 1996, dated 2002).

The compounds below were run on HRV-14 (assay: Antirhinoviral HI-HeLa Cell Culture Assay (Cell Protection Assay, XTT dye reduction)). Details: therapeutic index = CC50 divided by EC50; HRV-14, HI-HeLa.
Type: cell-based, human rhinovirus (HRV) serotype-14
Protocol: In the Cell Protection Assay, the ability of compounds to protect cells against HRV infection was measured by the XTT dye reduction method. This method is described in Weislow, O. S., R. Kiser, D. L. Fine, J. Bader, R. H. Shoemaker, and M. R. Boyd, J. Natl. Cancer Inst. 1989, 81, 577-586, which is incorporated herein by reference.
HI-HeLa cells were infected with HRV-14 at a multiplicity of infection (m.o.i.) of 0.13 (virus particles/cell) or mock-infected with medium only. Infected or mock-infected cells were resuspended at 8×10^5 cells per mL and incubated with appropriate concentration of compounds of formulas I and II. Two days later, XTT/PMS was added to test plates and the amount of formazan produced was quantified spectrophotometrically at 450/650 nm. […] The therapeutic index (TI) was calculated by dividing the CC50 by the EC50.
All strains of human rhinovirus (HRV) for use in this assay were purchased from American Type Culture Collection (ATCC), except for HRV serotype-14, which was produced from the infectious cDNA clone, constructed and supplied to us by Dr. Roland Rueckert at the Institue for Molecular Virology, University of Wisconsin, Madison, Wisc. HRV stocks were propagated, and antiviral assays were perforemd in HI-HeLa cells (ATCC). Cells were grwon in Minimal Essential Medium, available from Life Technologies, with 10% fetal bovine serum.
The compounds were tested against control compounds WIN 51711, WIN 52084, and WIN 54954, all obtained from Sterling-Winthrop Pharmaceuticals, and control compound Pirodavir, obtained from Janssen Pharmaceuticals.

Compound	TI
CCOC(=O)/C=C/[C@H](COC(=O)NC(=O)CCl)NC(=O)[C@H](Cc1ccccc1)NC(=O)[C@H](CC(C)C)NC(=O)OCc1ccccc1 [Compound 122]	5
CCOC(=O)/C=C/[C@H](CCC(N)=O)NC(=O)[C@H](Cc1ccccc1)NC(=O)[C@H](CC(C)C)NC(=O)SC [Compound 119]	>291
CCOC(=O)/C(C)=C/[C@H](CCC(N)=O)NC(=O)[C@H](Cc1ccc(F)cc1)NC(=O)[C@@H](NC(=O)SC1CCCC1)C(C)(C)C [Compound 177, Ethyl-2-Methyl-3-[Cyclopentylthiocarbonyl-L-α-(t-Butyl-Gly)-L-(4-F-Phe)-L-Gln]-E-Propenoate]	>200
C/C(=C\[C@H](CCC(N)=O)NC(=O)[C@H](Cc1ccccc1)NC(=O)[C@H](CC(C)C)NC(=O)OCc1ccccc1)C(=O)O [Compound 144]	>3
CC(C)C[C@H](NC(=O)OCc1ccccc1)C(=O)N[C@@H](Cc1ccccc1)C(=O)N[C@H](/C=C/C(=O)c1ccco1)CCC(N)=O [Compound 49]	8
CCOC(=O)/C=C/[C@H](CCC(N)=O)NC(=O)[C@H](Cc1ccccc1)NC(=O)[C@H](CC(=O)N(C)C)NC(=O)OCc1ccccc1 [Compound 158]	>54
CCOC(=O)/C=C/[C@H](CCC(N)=O)NC(=O)[C@H](Cc1ccccc1)NC(=O)[C@H](CSc1ccccc1)NC(=O)OCc1ccccc1 [Compound 153]	>2667
CCOC(=O)C=CC(CCC(N)=O)NC(=O)C(Cc1ccccc1)NC(=O)C(NC(=O)SC1CCCC1)C(C)(C)[S+](C)[O-] (mixture of isomers) [Compound 179, Ethyl-3-(Cyclopentylthiocarbonyl-L-[S(O)-Me-Pen]-L-Phe-L-Gln)-E-Propenoate]	>56
CCOC(=O)/C=C/[C@H](COC(N)=O)NC(=O)[C@H](Cc1ccccc1)NC(=O)[C@H](CC(C)C)NC(=O)OCc1ccccc1 [Compound 56]	>203
CCOC(=O)/C=C/[C@H](CCC(N)=O)NC(=O)[C@H](Cc1ccc(CO)cc1)NC(=O)[C@H](CC(C)C)NC(=O)OCc1ccccc1 [Compound 114]	>582
CCOC(=O)/C=C/[C@H](CCC(N)=O)NC(=O)[C@H](CSC)NC(=O)[C@H](CC(C)C)NC(=O)OCc1ccccc1 [Compound 142]	>36
CCOC(=O)/C=C/[C@H](CCC(N)=O)NC(=O)[C@H](Cc1ccc(F)cc1)NC(=O)[C@@H](NC(=O)SC1CCCC1)C(C)C [Compound 184]	>526
CCOC(=O)/C(F)=C\[C@H](CCC(N)=O)NC(=O)[C@H](Cc1ccccc1)NC(=O)[C@H](CC(C)C)NC(=O)OCc1ccccc1 [Compound 8, Ethyl-2-Fluoro-3-(CBZ-L-Leu-L-Phe-L-Gln)-E-Propenoate]	>5
CCOC(=O)/C=C/[C@H](CCC(N)=O)NC(=O)[C@H](Cc1ccccc1)NC(=O)[C@H](CC(C)C)NC(=O)SCc1ccccc1 [Compound 106]	>1185
CCOC(=O)/C=C/[C@H](CCC(N)=O)NC(=O)[C@H](Cc1ccc(C)cc1)NC(=O)[C@@H](NC(=O)SC1CCCC1)C(C)C [Compound 183]	>3333
CCOC(=O)/C=C/[C@H](CCC(N)=O)NC(=O)[C@@H](NC(=O)[C@H](CC(C)C)NC(=O)OCc1ccccc1)C(C)O (stereo partly drawn) [Compound 134]	>5
CC(C)C[C@H](NC(=O)OCc1ccccc1)C(=O)N[C@@H](Cc1ccccc1)C(=O)N[C@H](/C=C\CCl)CCC(N)=O [Compound 78]	8
CCOC(=O)/C=C/C(CCC(N)=O)NC(=O)C(Cc1ccccc1)NC(=O)C(CC(C)C)NC(=O)c1ccc2ccccc2c1 (stereo not drawn) [Compound 44]	>320

Compound	TI
CC(C)C[C@H](NC(=O)OCc1ccccc1)C(=O)N[C@@H](Cc1ccccc1)C(=O)N[C@H](/C=C/C(=O)N1CCCC1=O)CCC(N)=O [Compound 61]	63
CC(C)CC(NC(=O)OCc1ccccc1)C(=O)NC(Cc1ccccc1)C(=O)NC(C=C1CCCOC1=O)CCC(N)=O (stereo not drawn) [Compound 130]	>6
CCOC(=O)/C(C)=C/[C@H](CCC(N)=O)NC(=O)[C@H](Cc1ccccc1)NC(=O)[C@H](CC(C)C)NC(=O)OCc1ccccc1 [Compound 82]	>107
CC(C)C[C@H](NC(=O)OCc1ccccc1)C(=O)N[C@@H](Cc1ccccc1)C(=O)N[C@H](/C=C/CCl)CCC(N)=O [Compound 74]	25
CC(C)C[C@H](NC(=O)OCc1ccccc1)C(=O)N[C@@H](Cc1ccccc1)C(=O)N[C@H](/C=C/C(=O)OC1CCCC1)CCC(N)=O [Compound 18, Cyclopentyl-3-(CBZ-L-Leu-L-Phe-L-Gln)-E-Propenoate]	>156
CCOC(=O)/C=C/[C@H](CCC(N)=O)NC(=O)[C@H](Cc1ccc(C#N)cc1)NC(=O)[C@H](CC(C)C)NC(=O)OCc1ccccc1 [Compound 132]	>57
CC(C)C[C@H](NC(=O)OCc1ccccc1)C(=O)N[C@@H](Cc1ccccc1)C(=O)N[C@H](/C=C/C(=O)N1CCc2cc([N+](=O)[O-])ccc21)CCC(N)=O [Compound 86]	>19
CCOC(=O)/C=C/[C@H](CCC(N)=O)NC(=O)[C@H](Cc1ccccc1)NC(=O)[C@H](C)NC(=O)OCc1ccccc1 [Compound 101]	>160
CCOC(=O)/C=C/[C@H](CCC(N)=O)NC(=O)[C@H](Cc1cccc(F)c1)NC(=O)c1cc2c(OC)cccc2[nH]1 [Compound 28, Ethyl-3-[N-(4-Methoxyindole-2-Carbonyl)-L-(3-F-Phe)-L-Gln]-E-Propenoate]	14
CCOC(=O)/C=C/[C@H](CCC(N)=O)NC(=O)[C@H](Cc1ccccc1)NC(=O)[C@H](CC(=O)O)NC(=O)OCc1ccccc1 [Compound 159]	>133
CCOC(=O)/C=C/[C@H](CCC(N)=O)NC(=O)[C@H](Cc1ccccc1)NS(=O)(=O)Cc1ccccc1 [Compound 32, Ethyl-3-[N-(Benzylsulfonyl)-L-Phe-L-Gln]-E-Propenoate]	>10
CCOC(=O)/C=C/[C@H](CCC(N)=O)NC(=O)[C@H](Cc1ccccc1)NC(=O)[C@H](CC(C)C)NC(=O)C1CCCC1 [Compound 116]	>533
CCOC(=O)/C(C)=C/[C@H](CCC(N)=O)NC(=O)[C@H](Cc1ccccc1)NC(=O)[C@@H](NC(=O)SCC)C(C)(C)C [Compound 168, Ethyl-2-Methyl-3-[Ethylthiocarbonyl-L-α-(t-Butyl-Gly)-L-Phe-L-Gln]-E-Propenoate]	>312
CC(C)C[C@H](NC(=O)OCc1ccccc1)C(=O)N[C@@H](Cc1ccccc1)C(=O)N[C@H](/C=C/C(=O)c1ccc2c(c1)OCO2)CCC(N)=O [Compound 46]	14
CCOC(=O)/C=C/[C@H](CCC(N)=O)NC(=O)[C@H](CC1CCCCC1)NC(=O)[C@H](CC(C)C)NC(=O)OCc1ccccc1 [Compound 135]	>168
Ethyl-3-[CBZ-L-Leu-L-Phe-L-[N-(2-pyrrolidinone)]-Ala]-E-Propenoate [Compound 5]	157
CC(C)C[C@H](NC(=O)OCc1ccccc1)C(=O)N[C@@H](Cc1ccccc1)C(=O)N[C@H](/C=C/C(=O)c1ccc(C#N)cc1)CCC(N)=O [Compound 80]	>6
CCOC(=O)/C=C/[C@H](CCC(N)=O)NC(=O)[C@H](CC(C)C)NC(=O)[C@H](CC(C)C)NC(=O)OCc1ccccc1 [Compound 141]	>59
